# Measurements reported in PubChem BioAssay AID624099 (ICCB-Longwood, 2012)
# Screen: 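Host factors E2 relies on to silence an HPV18 LCR reporter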 (primary screen)
# System: human C33A cervical carcinoma cells (HPV-negative) stably expressing BPV1 E2 and an HPV18 LCR luciferase reporter
# Reagent: siRNA pool against human genes, 40 nM
# Time to read-out: 72 h
# Read-out: 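HPV18 LCR reporter light per well, converted to plate-wise z-scores that exclude control wells, and averaged over triplicate plates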
# Reading the numbers: mean z-score and z-score: higher = stronger reporter signal, weaker E2 silencing
# Active means: 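Mean z ≥ 2 together with z ≥ 2 in two or more of the three replicates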
# The whole screen tested about 21,000 reagents; this is a random part of them. 497 of all reagents (2.4%) were called active. 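Higher z means weaker E2 silencing; only reporter increases were scored, and knock-downs that hurt cell survival may mask genuine repressor factors.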 Entries without a mark were called inactive.
target gene,mean z-score,"z-score, replicate A","z-score, replicate B","z-score, replicate C"
NAT1,0.6,0.33,0.8,0.67
ALKBH5,0.2,0.33,0.24,0.03
NXPE2,0.54,0.67,0.81,0.14
CDKL2,0.52,0.38,0.46,0.73
TMEM244,-1.16,-0.89,-1.64,-0.94
PLEKHO2,0.92,1.04,1.1,0.63
DMRT2,-1.17,-1,-1.22,-1.28
HSPA1B,-0.09,0.28,-0.22,-0.34
TMEM147,-1,-1,-1.08,-0.94
AKT1S1,-0.36,-0.6,-0.39,-0.1
DPEP2,-0.67,-0.96,-0.39,-0.66
ARHGAP32,0.06,-0.02,-0.03,0.23
STC1,0.44,0.61,0.3,0.4
HCAR1,-0.19,-0.26,-0.36,0.04
GOT2,-0.19,0.05,-0.34,-0.29
ARID1B,-1.03,-1.22,-0.91,-0.96
MPDZ,0.86,0.89,0.99,0.7
SMPDL3A,0.83,0.91,0.66,0.92
TAGLN2,1.17,1.28,1.16,1.07
TSPY2,-0.12,0.24,-0.18,-0.41
PBOV1,-0.67,-1.04,-0.74,-0.22
SLC66A1,0.03,0.03,0.02,0.03
MYOM2,-0.49,-0.22,-0.79,-0.45
CDC25A,0.56,0.49,0.52,0.67
P3H4,0.12,0.32,0.18,-0.14
PM20D2,0.66,0.29,0.73,0.95
ARHGEF18,0.53,0.37,0.66,0.57
TRHDE,-0.42,-0.56,-0.73,0.05
TNFSF11,-0.61,-0.66,-0.64,-0.53
CHEK2,0.39,-0.01,0.55,0.63
SSU72L3,-0.27,-0.38,-0.64,0.2
SP140,1.36,1.36,1.34,1.39
KAZALD1,-0.81,-1.03,-0.74,-0.65
TRAP1,2.46 (active),2.28,2.55,2.54
ADCY3,-0.77,-0.31,-1.2,-0.79
DLEU7,0.63,0.27,0.98,0.65
PLCB3,0.28,0.96,-0.08,-0.03
KRTAP5-8,-1.04,-1.13,-0.72,-1.28
NMI,-0.05,0.23,-0.04,-0.34

Records listed above marked active, once more:
target gene,mean z-score,"z-score, replicate A","z-score, replicate B","z-score, replicate C"
TRAP1,2.46 (active),2.28,2.55,2.54
